Results of unrelated studies side by side (data: NIAID ChemDB).

Common to all: tests in culture; organism: Candida albicans

Neighbouring rows are from separate reports. An empty or dashed field is not shown. MIC50, MIC90 and the like: level of inhibition, or share of isolates inhibited. ECn: concentration that inhibits the pathogen or its effect by n%. Inhibition is in % at the dose shown (toxicity tests: loss of growth or viability).

| structure | tested at | read-out | strain | conditions | method | result |
|---|---|---|---|---|---|---|
| CCCCCCCCCCCC[N+](C)(C)COCC(C)CC |  | MBC | ATCC 10231 |  |  | 71.4 µM |
| CC(C)[C@]1(O)CC[C@]2(C)C=C[C@@](C)(O)C[C@H](OCC(=O)c3ccccc3)[C@H]21 |  | EC90 |  |  | broth dilution | >50 µg/mL |
| Cc1c(CN2CCN(C)CC2)cc(-c2ccccc2)n1-c1ccc(Cl)cc1Cl |  | Mean MIC | 20 strains |  |  | 43.5 µg/mL |
| COC(=O)[C@H]1[C@@H]2C[C@@H](O[C@@H]3O[C@H](C)[C@@H](O)[C@H](N)[C@@H]3O)/C=C/C=C/C=C/C=C/C=C/C=C/C=C/[C@H](C)[C@@H](O)[C@H](C)[C@H](C)OC(=O)C[C@H](O)C[C@H](O)[C@@H](O)CC[C@H](O)C[C@H](O)C[C@](O)(C[C@@H]1O)O2 |  | EC90 | 10 isolates | pH 6 | broth dilution | 2 µg/mL |
| COc1ccc(C(c2nccc3ccccc23)n2ccnc2)cc1.O=[N+]([O-])O |  | MIC90 | 44 strains |  |  | >256 µg/mL |
| COc1ccc(-c2c3c(N)c4c(nc3nc3c2c(C)nn3-c2ccccc2)CCC4)cc1 |  | MIC80 | ATCC 10231 |  | broth dilution / absorbance | 250 µg/mL |
| COc1ccc(-c2oc3ccc(C)cc3c2C(=O)c2cc(OC)cc(OC)c2)cc1 |  | EC80 |  |  | broth dilution | >200 µg/mL |
| CCCCn1cc[n+](COCCCCOC[n+]2ccn(CCCC)c2)c1 |  | MIC100 | ATCC 90028 |  | agar diffusion | 173 µM |
| C[C@@H](c1ncncc1F)[C@](O)(Cn1cncn1)c1ccc(F)cc1F |  | EC90 | 10 isolates | pH 6 | broth dilution | 1 µg/mL |
| Fc1ccc(COc2ccc(C(c3nccc4ccccc34)n3ccnc3)cc2)c(F)c1 |  | MIC90 | 17 strains |  |  | ≥256 µg/mL |
| Cc1ccc(N=Nc2ccc(O)c(C[N+](C)(C)COCCCC3CCCCC3)c2)cc1 |  | MBC |  |  |  | 272 µM |
| Cc1ccc(C=C2SC(c3cc4cc(C)ccc4nc3Cl)N(n3c(-c4ccc(Cl)cc4)nc4ccccc4c3=O)C2=O)cc1 |  | MIC99 |  |  | broth dilution / visual reading | 1000 µg/mL |
| CCCCCOc1ccc(-c2ccc(-c3ccc(C(=O)N[C@H]4CCCNC(=O)C5C[C@H](N)CN5C(=O)C(CN)NC(=O)C(CCc5ccc(O)cc5)NC(=O)C5C[C@@H](O)CN5C(=O)C(C(C)O)NC4=O)cc3)cc2)cc1 |  | MIC | ATCC CCH442 |  |  | 0.39 µg/mL |
| CCC(C)n1ncn(-c2ccc(N3CCN(c4ccc(OC[C@H]5CO[C@](Cn6cncn6)(c6ccc(Cl)cc6Cl)O5)cc4)CC3)cc2)c1=O |  | Geometric mean MIC | 5 isolates fluconazole-susceptible |  |  | 0.142 µg/mL |
| CCOC(=O)C1C(c2cc3cc(Cl)ccc3nc2Cl)C2=C(CCCC2=O)N(c2cccnc2)C1N |  | MIC99 | MTCC 227 |  | broth dilution | >1000 µg/mL |
| CCCCCOc1ccc(-c2cc(-c3ccc(C(=O)N[C@H]4C[C@@H](O)[C@@H](O)NC(=O)[C@@H]5[C@@H](O)[C@@H](C)CN5C(=O)[C@H]([C@H](O)CC(N)=O)NC(=O)[C@H]([C@H](O)[C@@H](O)c5ccc(O)c(OS(=O)(=O)O)c5)NC(=O)[C@@H]5C[C@@H](O)CN5C(=O)[C@H]([C@@H](C)O)NC4=O)cc3)no2)cc1 |  | MFC50 | 12 isolates |  |  | 0.0313 µg/mL |
| CCCCCCCCCn1cc[n+](COCCCCCOC[n+]2ccn(CCCCCCCCC)c2)c1 |  | MIC100 | ATCC 90028 |  | agar diffusion | 8 µM |
| CC1=C[C@H](OCC(=O)c2ccc(O)cc2)[C@@H]2[C@](C)(CC[C@@]2(O)C(C)C)CC1O |  | EC90 |  |  | broth dilution | >50 µg/mL |
| CC(=O)N1CCN(c2ccc(OC[C@H]3CO[C@](Cn4ccnc4)(c4ccc(Cl)cc4Cl)O3)cc2)CC1 |  | EC90 | 10 isolates | pH 5 | broth dilution | 0.5 µg/mL |
| Cc1ccc2nc(Cl)c(C3SC(=Cc4ccccc4O)C(=O)N3n3c(-c4ccc(Cl)cc4)nc4ccccc4c3=O)cc2c1 |  | MIC99 |  |  | broth dilution / visual reading | 500 µg/mL |
| OC(CN1CCN(c2ccc(OCc3ccncc3)cc2)CC1)(Cn1cncn1)c1ccc(F)cc1F |  | MIC80 | FHB3 |  |  | 1 µg/mL |
| CCCCCCCCCCCC[N+](C)(C)COCCCCCCCC |  | MBC | ATCC 10231 |  |  | 128 µM |
| Cc1ccc(-c2c3c(N)c4c(nc3nc3c2c(C)nn3-c2ccccc2)CCC4)cc1 |  | MIC50 | CCC 126 |  | broth dilution / absorbance | 62.5 µg/mL |
| Cc1c(CN2CCCC2)cc(-c2ccccc2)n1-c1ccc(Cl)cc1 |  | Mean MIC | 20 strains |  |  | 104.8 µg/mL |
| CCCCCOc1ccc(-c2ccc(-c3ccc(C(=O)N[C@H]4CCCNC(=O)C5C[C@H](N)CN5C(=O)C(CCCN(CCN)CCN)NC(=O)C(CCc5ccc(O)cc5)NC(=O)C5C[C@@H](O)CN5C(=O)C(C(C)O)NC4=O)cc3)cc2)cc1 |  | MIC | ATCC 10231 |  |  | 0.78 µg/mL |
| COc1ccc(-c2oc3ccc(C)cc3c2C(=O)c2ccc(O)c(I)c2)cc1 |  | EC80 |  |  | broth dilution | >200 µg/mL |
| CCCCCCCCCCCC[N+](C)(C)COCCCC |  | MBC | ATCC 10231 |  |  | 74 µM |
| Fc1ccccc1COc1ccc(C(c2ccc3ccccc3c2)n2ccnc2)cc1 |  | Mean MIC | 16 strains |  |  | 36.6 µg/mL |
| COc1ccc(-c2oc3ccc(C)cc3c2C(=O)c2cc(Cl)cc(Cl)c2)cc1 |  | EC80 |  |  | broth dilution | >200 µg/mL |
| C=CCc1ccc(O)c(OC)c1 |  | MIC90 | 177 |  | turbidity | 480 µg/mL |
| CC(C)(O)c1cn(-c2ccc([N+](=O)[O-])cc2)nn1 | 2048 µg/mL | inhibition | URM 4606 |  | broth dilution | 0% |
| CCC(C)n1ncn(-c2ccc(N3CCN(c4ccc(OC[C@H]5CO[C@](Cn6cncn6)(c6ccc(Cl)cc6Cl)O5)cc4)CC3)cc2)c1=O |  | Geometric mean MIC | 55 strains (fluconazole-susceptible) |  |  | 0.02 µg/mL |
| CCCOC[N+](C)(C)Cc1cc(N=Nc2ccc(Cl)cc2)ccc1O |  | MBC |  |  |  | 2512 µM |
| CCCCCCCCn1cc[n+](COCCCCCCOC[n+]2ccn(CCCCCCCC)c2)c1 |  | MIC100 | ATCC 90028 |  | agar diffusion | 2 µM |
| Cc1c(CNc2ccccc2)cc(-c2ccccc2)n1-c1ccc(Cl)cc1 |  | Mean MIC | 20 strains |  |  | >200 µg/mL |
| Fc1ccccc1COc1ccc(C(c2nccc3ccccc23)n2ccnc2)cc1 |  | MIC90 | 17 strains |  |  | 64 µg/mL |
| CCCCCCCCCCCC[N+](C)(C)COCC(C)CCC |  | MBC | ATCC 10231 |  |  | 27.5 µM |
| Oc1ccc2c(c1)CCc1ccc(O)c(c1)Oc1ccc(cc1)CCc1cccc(O)c1O2 |  | MIC80 | CA2 |  | broth dilution | 32 µg/mL |
| Fc1ccc(COc2ccc(C(c3ccc4ccccc4c3)n3ccnc3)cc2)cc1.O=[N+]([O-])O |  | MIC90 | 16 strains |  |  | ≥256 µg/mL |
| CCCCCOc1ccc(-c2ccc(-c3ccc(C(=O)N[C@H]4CCCNC(=O)C5C[C@H](NC(=O)Nc6ccccc6)CN5C(=O)C(C(C)O)NC(=O)C(CCc5ccc(O)cc5)NC(=O)C5C[C@@H](O)CN5C(=O)C(C(C)O)NC4=O)cc3)cc2)cc1 |  | MIC | ATCC 62376 |  |  | 6.25 µg/mL |
| CCOC(=O)C1C(c2cc3cc(C)ccc3nc2Cl)C2=C(CCCC2=O)N(c2cccnc2)C1N |  | MIC99 | MTCC 227 |  | broth dilution | 1000 µg/mL |
| Cc1ccc2nc(Cl)c(C3SC(=Cc4ccc(O)cc4)C(=O)N3n3c(-c4ccc(Cl)cc4)nc4ccccc4c3=O)cc2c1 |  | MIC99 |  |  | broth dilution / visual reading | 500 µg/mL |
| Clc1cccc(Cl)c1COc1ccc(C(c2nccc3ccccc23)n2ccnc2)cc1 |  | MIC90 | 17 strains |  |  | ≥256 µg/mL |
| Cc1ccc(-c2c3c(N)c4c(nc3nc3c2c(C)nn3-c2ccccc2)CCCC4)cc1 |  | MIC50 | ATCC 10231 |  | broth dilution / absorbance | 31.2 µg/mL |
| CCOC(=O)C1C(c2cc3cc(OC)ccc3nc2Cl)C2=C(CCCC2=O)N(c2cccnc2)C1N |  | MIC99 | MTCC 227 |  | broth dilution | >1000 µg/mL |
| CCCCCCCCCCCC[N+](C)(C)COCC |  | MBC | ATCC 10231 |  |  | 162 µM |
| Cc1ccc(-c2ccc(Cl)cc2)n1-c1ccc([N+](=O)[O-])cc1 |  | Mean MIC | 20 strains |  |  | >200 µg/mL |
| Cc1ccc(C(C)C)cc1 |  | MLC | M1 |  |  | >10 µg/mL |
| COc1cc(C=C2SC(c3cc4cc(C)ccc4nc3Cl)N(n3c(-c4ccc(Cl)cc4)nc4ccccc4c3=O)C2=O)cc(OC)c1OC |  | MIC99 |  |  | broth dilution / visual reading | 1000 µg/mL |
| CCCCCCCCCCCn1cc[n+](COCCCCCOC[n+]2ccn(CCCCCCCCCCC)c2)c1 |  | MIC100 | ATCC 90028 |  | agar diffusion | 4 µM |
| Nc1[nH]c(=O)ncc1F |  | Geometric mean MIC | 12 isolates fluconazole-resistant |  |  | 0.454 µg/mL |
| COC(=O)C1C(c2cc3cc(Cl)ccc3nc2Cl)C2=C(CCCC2=O)N(c2cccnc2)C1N |  | MIC99 | MTCC 227 |  | broth dilution | 1000 µg/mL |
| Cc1ccc2nc(Cl)c(C3SC(=Cc4ccc([N+](=O)[O-])cc4)C(=O)N3n3c(-c4ccc(Cl)cc4)nc4ccccc4c3=O)cc2c1 |  | MIC99 |  |  | broth dilution / visual reading | 100 µg/mL |
| CCC(C)CC(C)CCCCCCCCC(=O)N[C@H]1C[C@@H](O)[C@H](NCCN)NC(=O)[C@@H]2[C@@H](O)CCN2C(=O)[C@H]([C@H](O)CCN)NC(=O)[C@H]([C@H](O)[C@@H](O)c2ccc(O)cc2)NC(=O)[C@@H]2C[C@@H](O)CN2C(=O)[C@H]([C@@H](C)O)NC1=O |  | Geometric mean MIC | 8 strains |  |  | 0.5 µg/mL |
| COc1ccc(-c2c3c(N)c4c(nc3nc3c2c(C)nn3-c2ccccc2)CCCCC4)cc1 |  | MIC80 | ATCC 10231 |  | broth dilution / absorbance | 125 µg/mL |
| Cc1ccc(-c2ccccc2)n1-c1ccc(F)cc1 |  | Mean MIC | 20 strains |  |  | >200 µg/mL |
| CCCCCCCCCCCC[N+](C)(C)COCC(CC)CC |  | MBC | ATCC 10231 |  |  | 27.5 µM |
| Cc1ccc(N=Nc2ccc(O)c(C[N+](C)(C)COC3CCCCCC3)c2)cc1 |  | MBC |  |  |  | 143 µM |
| Cc1c(CN2CCN(C)CC2)cc(-c2ccc(Cl)cc2)n1-c1ccc(Cl)cc1 |  | Mean MIC | 20 strains |  |  | 57.3 µg/mL |
| C[C@H]1[C@H](O)[C@@H](C)/C=C/C=C/C=C/C=C/C=C/C=C/C=C/[C@H](O[C@@H]2O[C@H](C)[C@@H](O)[C@H](N)[C@@H]2O)C[C@@H]2O[C@](O)(C[C@@H](O)C[C@@H](O)CC[C@H](O)[C@@H](O)C[C@@H](O)CC(=O)O[C@H]1C)C[C@H](O)[C@H]2C(=O)O |  | Geometric mean MIC | 8 strains |  |  | 1 µg/mL |
| CC(C)(O)c1cn(-c2cccc3ccccc23)nn1 | 2048 µg/mL | inhibition | URM 4820 |  | broth dilution | 0% |
| COC(=O)C1C(c2cc3cc(OC)ccc3nc2Cl)C2=C(CCCC2=O)N(c2cccnc2)C1N |  | MIC99 | MTCC 227 |  | broth dilution | 500 µg/mL |
| COc1cc(C(=O)CO[C@H]2C=C(C)C(=O)C[C@@]3(C)CC[C@@](O)(C(C)C)[C@H]23)ccc1O |  | EC90 |  |  | broth dilution | >50 µg/mL |
| Clc1ccccc1C(c1ccccc1)(c1ccccc1)n1ccnc1 |  | EC90 | 10 isolates | pH 4 | broth dilution | 0.5 µg/mL |
| Cc1ccc(N=Nc2ccc(O)c(C[N+](C)(C)COC3CCCCC3)c2)cc1 |  | MBC |  |  |  | 299 µM |
| Cc1ccc(-n2cc(C(C)(C)O)nn2)cc1C | 2048 µg/mL | inhibition | URM 4817 |  | broth dilution | 0% |
| Fc1ccc(COc2ccc(C(c3ccc4ccccc4c3)n3ccnc3)cc2)c(F)c1.O=[N+]([O-])O |  | Mean MIC | 17 strains |  |  | ≥256 µg/mL |
| CCCCCCCOC[N+](C)(C)Cc1cc(N=Nc2ccc(Cl)cc2)ccc1O |  | MBC |  |  |  | 1101 µM |
| CCCCCCCCOC[N+](C)(C)CCCCCCCC |  | MBC | ATCC 10231 |  |  | 298 µM |
| CCCCCOc1ccc(-c2ccc(-c3ccc(C(=O)N[C@H]4CCCNC(=O)C5C[C@H](N)CN5C(=O)C(Cc5cnc[nH]5)NC(=O)C(CCc5ccc(O)cc5)NC(=O)C5C[C@@H](O)CN5C(=O)C(C(C)O)NC4=O)cc3)cc2)cc1 |  | MIC | ATCC 62376 |  |  | 0.78 µg/mL |
| C[C@H]1[C@H](O)[C@@H](C)/C=C/C=C/C=C/C=C/C=C/C=C/C=C/[C@H](O[C@@H]2O[C@H](C)[C@@H](O)[C@H](N)[C@@H]2O)C[C@@H]2O[C@](O)(C[C@@H](O)C[C@@H](O)CC[C@H](O)[C@@H](O)C[C@@H](O)CC(=O)O[C@H]1C)C[C@H](O)[C@H]2C(=O)O |  | MIC80 | TIMM3315 (azole-resistant) |  |  | 0.25 µg/mL |
| COC(=O)C1C(c2cc3ccccc3nc2Cl)C2=C(CCCC2=O)N(c2cccnc2)C1N |  | MIC99 | MTCC 227 |  | broth dilution | 250 µg/mL |
| Cc1ccc(-c2c3c(N)c4c(nc3nc3c2c(C)nn3-c2ccccc2)CCCCC4)cc1 |  | MIC80 | CCC 128 |  | broth dilution / absorbance | 62.5 µg/mL |
| CC1=C[C@H](OCC(=O)c2ccc(O)cc2)[C@@H]2[C@](C)(CC[C@@]2(O)C(C)C)CC1=O |  | EC90 |  |  | broth dilution | >50 µg/mL |
| Cc1ccc2nc(Cl)c(C3SC(=Cc4ccccc4[N+](=O)[O-])C(=O)N3n3c(-c4ccc(Cl)cc4)nc4ccccc4c3=O)cc2c1 |  | MIC99 |  |  | broth dilution / visual reading | 100 µg/mL |